The term EC50 denotes the concentration that produces a half-maximal response. High values mean lower potency in that assay, low ones higher potency in that assay.

Results on three molecules are retold here after PMC4140803 (PLoS ONE, 2014).

This test deals with HIV-1LAI-M184V. The test is described as follows: microbe, parasite or virus in culture. It is filed as cell-based. The note with it: for EC50: Human immunodeficiency virus 1, C8166, HIV-1LAI-M184V; for FC, fold change, the ratio of EC50(Mut)/EC50(WT): HIV-1LAI-M184V vs wild type HIV-1IIIB.

The molecule `Nc1ccn([C@@H]2CS[C@H](CO)O2)c(=O)n1` [3TC, lamivudine, reference compound] registered an EC50 greater than 800000 nM. `Cc1cn([C@H]2C[C@H](N=[N+]=[N-])[C@@H](CO)O2)c(=O)[nH]c1=O` [AZT, zidovudine]: the “FC, fold change, the ratio of EC50(Mut)/EC50(WT)” value is 0.87. For the molecule `[N-]=[N+]=N[C@]1(CO)O[C@@H](n2ccc(N)nc2=O)[C@@H](F)[C@@H]1O` [FNC, 2′-deoxy-2′-β-fluoro-4′-azidocytidine], the “FC, fold change, the ratio of EC50(Mut)/EC50(WT)” value turned out to be 250 and a half-maximal response (EC50) required 27.4 ± 2.85 nM.
